From PMC12337344

System: G2L4 RT (Pseudomonas aeruginosa AZPAE12409)
Assay: X-ray crystallography (2.77 Å)
Details: 20 mM MgCl2, 1 mM MnCl2, 2 mM dCTP, ddGTP, incoming dCTP bound at the active site, protein:DNA 1:1.2; extended in the crystal at the 3' end by C, C and ddG (3'-terminal dideoxyguanosine); Co-crystallization at 25 C, protein:DNA 1:1.2, with 20 mM MgCl2, 1 mM MnCl2, 2 mM dCTP and ddGTP; protein in crystallization buffer; recombinant protein; protein details: MBP tag removed for crystallization; folded or branched DNA

Does AAGCGGTTAACCCAA [15-nt snapback DNA] bind?
Result: binds

The exact form of at least one protein or probe is not confirmed.
